Results of unrelated studies side by side (data: NIAID ChemDB).

Shared fields: growth or infection tests; species: HIV-1; endpoint: EC95

ECn: concentration that inhibits the pathogen or its effect by n%. Rows are shuffled and stem from different studies.

{"structure": "CC(C)(C)NC(=O)[C@@H]1CN(C(C)(C)c2cc3cnccc3o2)CCN1C[C@@H](O)C[C@@H](Cc1ccccc1)C(=O)N[C@H]1c2ccccc2C[C@H]1O", "strain": "K-60C (PR L10I S37N M46I I54V Q58E L63P I64V V77I V82F L90M I93L)", "mutations": "PR-L10I S37N M46I I54V Q58E L63P I64V V77I V82F L90M I93L", "result": ">1 µM"}
{"structure": "O=C1N(Cc2ccc(CO)cc2)[C@H](Cc2ccccc2)[C@H](O)[C@@H](O)[C@@H](Cc2ccccc2)N1Cc1ccc(CO)cc1", "strain": "NL4-3", "mutations": "PR-M46I V82T I84V", "cell line": "MT-4", "read by": "p24", "result": "1.5 µM"}
{"structure": "O=C(N[C@H]1c2ccccc2OC[C@H]1O)[C@H](Cc1nnco1)C[C@H](O)CN1CCN(Cc2ccc(-c3ccc(Cl)cc3)o2)C[C@H]1C(=O)NCC(F)(F)F", "strain": "NL4-3 WT", "cell line": "MT-4", "read by": "p24", "result": "0.063 µM"}
{"structure": "Cc1cc(C)c(-n2nnnc2SCC(=O)Nc2cccc(F)c2C)c(C)c1", "cell line": "MT-4", "read by": "p24", "result": "<10 µM"}
{"structure": "CCc1cc(CCc2nc3ccccc3o2)c(=O)[nH]c1C", "strain": "IIIB", "cell line": "H9", "read by": "p24", "result": "0.1 µM"}
{"structure": "CC(C)=CCOc1cc(NC(=S)c2ccoc2C)ccc1Cl", "strain": "IIIB", "cell line": "MT-2", "read by": "p24", "result": "0.03568 µg/mL"}
{"structure": "CCCc1nnc(C[C@H](C[C@H](O)CN2CCN(C(C)(C)c3ncc(-c4cncc(OC)c4)o3)C[C@H]2C(=O)NCC(F)(F)F)C(=O)N[C@H]2c3ccccc3OC[C@H]2O)o1", "strain": "K-60 Clinical isolate", "mutations": "PR-L10I M46I I54V Q58E L63P I64V V77I V82F I84V L90M I93L", "cell line": "MT-4", "read by": "p24", "result": "0.5 µM"}
{"structure": "Cc1cc(SC2=C(O)CC(CCc3ccc(O)cc3)(c3ccccc3)OC2=O)c(C(C)(C)C)cc1CO", "cell line": "CEM", "read by": "cytopathic effect / XTT", "result": "20 µM"}
{"structure": "CCc1cc(NCc2nc3c(Cl)ccc(Cl)c3o2)c(=O)[nH]c1C", "strain": "IIIB", "cell line": "H9", "read by": "p24 / ELISA", "result": "0.2 µM"}
{"structure": "Cc1nnc(C[C@H](C[C@H](O)CN2CCN(C(C)(C)c3ncc(-c4ccc(F)cc4)o3)C[C@H]2C(=O)NCC(F)(F)F)C(=O)N[C@H]2c3ccccc3OC[C@H]2O)o1", "strain": "NL4-3 WT", "cell line": "MT-4", "read by": "p24", "result": "0.125 µM"}
{"structure": "Cc1cc(C)c(-n2nnnc2SCC(=O)Nc2ccc([N+](=O)[O-])cc2C)c(C)c1", "cell line": "MT-4", "read by": "p24", "result": "<10 µM"}
{"structure": "CCc1cc(NCc2nc3c(C)ccc(C)c3o2)c(=O)[nH]c1C", "strain": "IIIB", "cell line": "PBL", "read by": "p24", "result": "0.1 µM"}
{"structure": "CC(C)CN(C[C@@H](O)[C@H](Cc1ccccc1)NC(=O)[C@H](CC(N)=O)NC(=O)c1ccc2ccccc2n1)C(=O)NC(C)(C)C", "strain": "NL4-3", "mutations": "PR-L63P V82T", "cell line": "MT-4", "read by": "p24", "result": "0.2 µM"}
{"structure": "CC(C)(c1ncc(-c2ccc(Cl)cc2)o1)N1CCN(C[C@@H](O)C[C@@H](Cc2nnc(-c3ccccc3)o2)C(=O)N[C@H]2c3ccccc3OC[C@H]2O)[C@H](C(=O)NCC(F)(F)F)C1", "strain": "Q-60 Clinical isolate", "mutations": "PR-L10I N37S R41K M46I I54V I62V L63P A71V V77I V82A L90M I93L", "cell line": "MT-4", "read by": "p24", "result": "0.016 µM"}
{"structure": "Cc1c(O)cccc1C(=O)N[C@@H](CSc1ccccc1)[C@H](O)CN1C[C@H]2CCCC[C@H]2C[C@H]1C(=O)NC(C)(C)CO", "strain": "RF", "cell line": "CEM + CEM-SS", "read by": "cytopathic effect / MTT", "result": "0.1541 µM"}
{"structure": "Cc1nnc(C[C@H](C[C@H](O)CN2CCN(C(C)(C)c3ncc(-c4ccc(Cl)cc4)o3)C[C@H]2C(=O)NCC(F)(F)F)C(=O)N[C@H]2c3ccccc3OC[C@H]2O)o1", "strain": "V-18 Clinical isolate", "mutations": "PR-L10I M36I N37D M46I R57K L63P A71V G73S I84V L90M I93L", "cell line": "MT-4", "read by": "p24", "result": "0.063 µM"}
{"structure": "O=C(NCc1ccc(F)cc1)c1nc(N2CCCCS2(=O)=O)c2cccnc2c1O", "strain": "BaL", "cell line": "Macrophage", "read by": "p24", "result": "0.035 µM"}
{"structure": "COc1cc([N+](=O)[O-])ccc1NC(=O)CSc1nnnn1-c1c(C)cc(C)cc1C", "cell line": "MT-4", "read by": "p24", "result": "<10 µM"}
{"structure": "Cc1c(O)cccc1C(=O)N[C@@H](CSc1ccccc1)[C@H](O)CN1C[C@H]2CCCC[C@H]2C[C@H]1C(=O)NC(C)(C)CO", "strain": "RF", "cell line": "CEM + CEM-SS", "read by": "cytopathic effect / MTT", "result": "0.1541 µM"}
{"structure": "CCc1cc(NCc2nc3c(Cl)ccc(Cl)c3o2)c(=O)[nH]c1C", "strain": "A018A/H112-2", "cell line": "CEM", "read by": "p24", "conditions": "clinical isolate", "result": "0.25 µM"}
{"structure": "Cc1ccnc2c1NC(=O)c1cccnc1N2C1CC1", "mutations": "RT-M41L T215Y L100I", "cell line": "MT-4", "result": "0.4 µM"}
{"structure": "Cc1cc(C)c(-n2nnnc2SCC(=O)Nc2cccc3ncccc23)c(C)c1", "cell line": "MT-4", "read by": "p24", "result": "<10 µM"}
{"structure": "CCCc1nnc(C[C@H](C[C@H](O)CN2CCN(Cc3ccc(-c4ccc(Cl)cc4)o3)C[C@H]2C(=O)NCC(F)(F)F)C(=O)N[C@H]2c3ccccc3OC[C@H]2O)o1", "strain": "Q-60 Clinical isolate", "mutations": "PR-L10I N37S R41K M46I I54V I62V L63P A71V V77I V82A L90M I93L", "cell line": "MT-4", "read by": "p24", "result": "0.016 µM"}
{"structure": "CC(Sc1nnnn1-c1cccc2ccccc12)C(=O)Nc1ccccc1[N+](=O)[O-]", "cell line": "MT-4", "read by": "p24", "result": "<10 µM"}
{"structure": "CCc1cc(CCc2nc3c(Cl)ccc(Cl)c3o2)c(=S)[nH]c1C", "strain": "A17", "mutations": "RT-K103N Y181C", "cell line": "H9", "read by": "p24", "result": "0.8 µM"}

3 of the rows above, restated:

{"structure": "CCc1cc(NCc2nc3c(C)ccc(C)c3o2)c(=O)[nH]c1C", "strain": "IIIB", "cell line": "PBL", "read by": "p24", "result": "0.1 µM"}
{"structure": "Cc1cc(C)c(-n2nnnc2SCC(=O)Nc2cccc3ncccc23)c(C)c1", "cell line": "MT-4", "read by": "p24", "result": "<10 µM"}
{"structure": "CC(C)=CCOc1cc(NC(=S)c2ccoc2C)ccc1Cl", "strain": "IIIB", "cell line": "MT-2", "read by": "p24", "result": "0.03568 µg/mL"}